# Potato spindle tuber viroid, loop 15: variant abundance in plants

Region: loop 15 of PSTVd (intermediate strain), upper and lower strand joined, each 5' to 3', the first 7 letters being the upper strand, closing pairs included. Wild type: GGAAACCGCUACUAC. Varied positions (N): GGAAACCGNNNNNNC.

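Three N. benthamiana plants were inoculated with the whole mutant pool. Progeny were sequenced from the inoculated region (day 5), the margin of the inoculated leaf (day 10) and systemic leaves (day 12).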

Values are reads per thousand in the sample; higher means more abundant, 0 means not found.
Each site shows the three plants.
"Pool" is the share in the plasmid pool used as inoculum, on the same scale.
The inoculated region was read from the minus strand, the other sites from the plus strand.
IR is the inoculated region, LM the leaf margin, Sys the systemic leaves.
Samples held 43,870 to 66,106 reads, so the smallest values rest on one or two reads.
Wild type was 33.9 per thousand in the pool and the most common sequence in every sample (inoculated region 202, 200, 159; leaf margin 724, 746, 710; systemic leaves 856, 883, 880).
The authors trace changes outside the varied positions to PCR and sequencing errors or to mutation in the plant; presence does not show that a variant is infectious alone.

sequence,pool,IR,LM,Sys
GGAAACCGUUGAUUC,0.256,0.278 / 0.209 / 0.343,0.0647 / 0.0445 / 0.120,0 / 0 / 0
GGAAACCGGACCCAC,0.224,0.180 / 0.0803 / 0.0952,0 / 0 / 0,0 / 0 / 0
GGAAACCGCGACUGC,0.160,0.393 / 0.353 / 0.152,0.0808 / 0.0445 / 0.100,0.0483 / 0.106 / 0.137
GGAAACCGAUCCACC,0.192,0.0983 / 0.0803 / 0.0571,0 / 0 / 0,0 / 0 / 0
GGAAACCGAGGAGAC,0.256,0.0328 / 0.0643 / 0.0952,0 / 0.0223 / 0,0 / 0 / 0
GGAAACCGGAUUCUC,0.208,0.131 / 0.112 / 0.0571,0 / 0 / 0,0.0161 / 0 / 0
GGAAACCGUUUAGUC,0.208,0.115 / 0.0803 / 0.0190,0 / 0 / 0,0.0161 / 0 / 0
GGAAACCGAAGUAUC,0.128,0.115 / 0.0803 / 0.171,0 / 0 / 0.0200,0 / 0 / 0
GGAAACCGGUGAUUC,0.192,0.0983 / 0.112 / 0.133,0 / 0.0223 / 0.0200,0 / 0 / 0
GGAAACCGUCAUUAC,0.288,0.262 / 0.193 / 0.362,0.146 / 0.111 / 0.180,0.0805 / 0.0908 / 0
GGAAACCGCUAUCAC,0.192,0.295 / 0.273 / 0.343,0.0485 / 0.0668 / 0.120,0.0161 / 0.0605 / 0.0456
GGAAACCGCCGCUUC,0.208,0.426 / 0.305 / 0.381,0.113 / 0.134 / 0.120,0.0483 / 0 / 0
GGAAACCGCAGUUGC,0.112,0.0491 / 0.112 / 0.0571,0 / 0 / 0.0601,0.0161 / 0 / 0
GGAAACCGCAUCGAC,0.192,0.0655 / 0.0482 / 0.114,0 / 0 / 0,0.0161 / 0 / 0
GGAAACCGGACUGAC,0.208,0.0164 / 0.0643 / 0.114,0.0162 / 0 / 0.0200,0 / 0 / 0
GGAAACCGCGGAUGC,0.240,0.0491 / 0.0803 / 0.0571,0 / 0 / 0,0 / 0 / 0
GGAAACCGGUGACCC,0.128,0.0819 / 0.0964 / 0.133,0 / 0.0223 / 0,0 / 0 / 0
GGAAACCGUGAUUGC,0.288,0.311 / 0.369 / 0.362,0.0647 / 0.134 / 0.220,0.0322 / 0.0303 / 0.0912
GGAAACCGAUUUGCC,0.336,0.0819 / 0.0964 / 0.0952,0 / 0 / 0.0801,0 / 0 / 0
GGAAACCGUAGCGUC,0.208,0.0819 / 0.0482 / 0.152,0 / 0 / 0,0.0161 / 0 / 0
GGAAACCGCAAAGCC,0.288,0.147 / 0.129 / 0.114,0.0323 / 0.0445 / 0,0 / 0 / 0.0228
GGAAACCGAUAUAAC,0.192,0.197 / 0.402 / 0.476,0.194 / 0.0445 / 0.0801,0.0644 / 0.136 / 0.0912
GGAAACCGUUCCGGC,0.240,0.0819 / 0.0803 / 0.0762,0.0162 / 0 / 0,0 / 0 / 0
GGAAACCGCGCCUCC,0.192,0.147 / 0.145 / 0.267,0.0162 / 0.0223 / 0.0200,0.0161 / 0 / 0
GGAAACCGCUGGGUC,0.288,0.0655 / 0.0964 / 0.152,0 / 0 / 0,0.0161 / 0 / 0
GGAAACCGCGUAACC,0.192,0.0655 / 0.129 / 0.0762,0 / 0 / 0.0200,0 / 0 / 0
GGAAACCGUUAUAGC,0.256,0.295 / 0.353 / 0.343,0.0970 / 0.111 / 0.0801,0.0161 / 0.0454 / 0.114
GGAAACCGACAUCCC,0.240,0.131 / 0.112 / 0.133,0 / 0 / 0,0 / 0 / 0
GGAAACCGAAGGACC,0.480,0.131 / 0.0643 / 0.114,0 / 0 / 0,0 / 0 / 0
GGAAACCGGUUUAAC,0.240,0.0983 / 0.0964 / 0.228,0 / 0 / 0.0401,0 / 0 / 0
GGAAACCGCUUUAUC,0.256,0.311 / 0.225 / 0.228,0 / 0 / 0.0401,0 / 0 / 0
GGAAACCGUGGAGAC,0.240,0.0819 / 0.0803 / 0.152,0.0162 / 0 / 0,0 / 0 / 0
GGAAACCGGAGACGC,0.288,0.131 / 0.112 / 0.0762,0.0323 / 0 / 0.0200,0 / 0 / 0
GGAAACCGUGGUCAC,0.176,0.131 / 0.145 / 0.0952,0 / 0 / 0,0.0161 / 0 / 0.0228
GGAAACCGAUUUUUC,0.192,0.0983 / 0.0803 / 0.0952,0 / 0 / 0.0200,0 / 0 / 0
GGAAACCGUACUACC,0.192,0.0983 / 0.112 / 0.0571,0.0162 / 0 / 0.0200,0 / 0 / 0
GGAAACCGAAGGCCC,0.224,0.0655 / 0.0803 / 0.0952,0.0162 / 0 / 0,0 / 0 / 0
GGAAACCGGUGUUCC,0.240,0.0491 / 0.0803 / 0.0381,0 / 0 / 0.0200,0 / 0 / 0
GGAAACCGCUGCCAC,0.176,0.131 / 0.0482 / 0.0762,0.0162 / 0 / 0,0 / 0 / 0
GGAAACCGCCCACGC,0.192,0.0819 / 0.0964 / 0.0952,0 / 0 / 0.0200,0 / 0 / 0
GGAAACCGACAACAC,0.208,0.246 / 0.402 / 0.400,0.162 / 0.178 / 0.140,0.0161 / 0.0756 / 0.0912
GGAAACCGUAUUAGC,0.192,0.0819 / 0.129 / 0.171,0.0162 / 0 / 0.0200,0 / 0 / 0
GGAAACCGCUAGGAC,0.192,0.311 / 0.305 / 0.190,0.210 / 0.0668 / 0.220,0.0805 / 0.0756 / 0.114
GGAAACCGAAGUGAC,0.256,0.0655 / 0.0964 / 0.0190,0.0162 / 0 / 0,0 / 0 / 0
GGAAACCGUACUAUC,0.208,0.0655 / 0.0482 / 0.0381,0 / 0.0223 / 0,0 / 0 / 0
GGAAACCGGUAAUCC,0.240,0.0983 / 0.0482 / 0.0190,0.0162 / 0 / 0,0.0161 / 0 / 0.0228
GGAAACCGUACAAUC,0.288,0.0983 / 0.112 / 0.0571,0.0162 / 0 / 0.0200,0 / 0 / 0
GGAAACCGGCCCCCC,0.256,0.115 / 0.0321 / 0.0762,0 / 0 / 0.0200,0 / 0 / 0
GGAAACCGAAAGAUC,0.384,0.295 / 0.321 / 0.381,0.194 / 0.0223 / 0.120,0.0161 / 0 / 0
GGAAACCGGUGCAUC,0.240,0.0819 / 0.0964 / 0.0571,0 / 0 / 0.0200,0 / 0 / 0
GGAAACCGCUCGUGC,0.256,0.377 / 0.386 / 0.381,0.129 / 0.0668 / 0.160,0.0483 / 0.0151 / 0.0684
GGAAACCGCCGCAGC,0.192,0.0819 / 0 / 0.0952,0 / 0 / 0,0 / 0 / 0
GGAAACCGGCCUCCC,0.192,0.0819 / 0.0643 / 0.0762,0 / 0.0223 / 0.0200,0.0161 / 0 / 0
GGAAACCGAGCAGUC,0.320,0.164 / 0.177 / 0.267,0.0323 / 0.0223 / 0.0200,0 / 0 / 0
GGAAACCGAUGACAC,0.176,0.0983 / 0.0803 / 0.0952,0 / 0.0668 / 0.0200,0 / 0 / 0
GGAAACCGGGUAGCC,0.112,0.0983 / 0.0803 / 0.0762,0 / 0.0223 / 0,0 / 0 / 0
GGAAACCGAUUCGUC,0.304,0.115 / 0.0964 / 0.133,0.0323 / 0 / 0.0200,0.0322 / 0 / 0

The opening 5 entries, copied out:

sequence,pool,IR,LM,Sys
GGAAACCGUUGAUUC,0.256,0.278 / 0.209 / 0.343,0.0647 / 0.0445 / 0.120,0 / 0 / 0
GGAAACCGGACCCAC,0.224,0.180 / 0.0803 / 0.0952,0 / 0 / 0,0 / 0 / 0
GGAAACCGCGACUGC,0.160,0.393 / 0.353 / 0.152,0.0808 / 0.0445 / 0.100,0.0483 / 0.106 / 0.137
GGAAACCGAUCCACC,0.192,0.0983 / 0.0803 / 0.0571,0 / 0 / 0,0 / 0 / 0
GGAAACCGAGGAGAC,0.256,0.0328 / 0.0643 / 0.0952,0 / 0.0223 / 0,0 / 0 / 0

Source: Wu et al. 2024 (doi:10.1371/journal.ppat.1012142), supplementary data.